A mixed list of measured activities; the numbers were collected in NIAID ChemDB.

Shared fields: growth or infection tests; species: HIV-1; measure: EC50

Two numbers with a dash give a range or band.

SMILES | mutations | method | cells | strain or isolate | result
CC(C)C1=C2[C@H]3CC[C@@H]4[C@@]5(C)CC[C@H](OC(=O)[C@H]6C[C@@H](C(=O)O)C6(C)C)C(C)(C)[C@@H]5CC[C@@]4(C)[C@]3(C)CC[C@@]2([C@@H](O)CNC(=O)c2ccc(N3CCC(N4CCOCC4)CC3)cc2)CC1=O | - | p24 / ELISA | MT-2 | 92HT599 | <1 µM
O=C(NC1CCCC1)c1ccc(C2=NN3C(C(=O)c4ccc([N+](=O)[O-])cc4)Oc4ccccc4C3C2)cc1 | - | GFP / reporter gene | MT-4 | LAI | <1 µM
O=C(Nc1nc2ccc(C(F)(F)F)cc2s1)c1cnc(C(F)(F)F)s1 | - | flow cytometry | PBMC | BaL | 0.248 µM
NC(=NC1CCCC1)c1ccc2nc(Cc3nc4ccc(C(N)=NC5CCCC5)cc4[nH]3)[nH]c2c1 | - | cytopathic effect / propidium iodide | MT-4 | IIIB | 3.2 µM
Nc1nc(N)c2ncn([C@@H]3O[C@H](CO)[C@H]3CO)c2n1 | - | RT activity / antigen | MT-4 | IIIB | 4.7 µg/mL
O=C(NCC1CCCCC1)c1ccc(C2=NN3C(C(=O)c4ccc(F)cc4)Oc4ccccc4C3C2)cc1 | - | GFP / reporter gene | MT-4 | LAI | >10 µM
NC(=NCC1CCCO1)c1ccc2nc(Cc3nc4ccc(C(N)=NCC5CCCO5)cc4[nH]3)[nH]c2c1 | - | cytopathic effect / propidium iodide | MT-4 | IIIB | 4.5 µM
C=Cc1c(C)c2cc3[nH]c(cc4nc(cc5nc(cc1[nH]2)C(C)=C5CCC(=O)O)C(CCC(=O)O)=C4C)c(C)c3C=C | - | cell fusion / fluorescence | MT-2 | IIIB | >10 µg/mL
COc1ccc2ccc3c(c2c1)OC1(CCN(Cc2ccc(C#N)cc2)CC1)NC3=O | - | ELISA | MOLT-4 | IIIB | 5.7 µM
CC(C)C1=C2[C@H]3CC[C@@H]4[C@@]5(C)CC[C@H](OC(=O)[C@H]6C[C@@H](C(=O)O)C6(C)C)C(C)(C)[C@@H]5CC[C@@]4(C)[C@]3(C)CC[C@@]2(CC(=O)NCC2CCCC2)CC1=O | - | p24 / ELISA | MT-2 | 92HT599 | <1 µM
COc1ccc2c(Cc3c4ccccc4cc4ccccc34)cncc2c1O | - | luciferase / β-galactosidase | Jurkat cells | - | 0.1 µM
CCCc1cc(=O)oc2c3c(c4c(c12)OC(C)(C)CC4)O[C@@H](C)[C@H](C)[C@@H]3O | - | XTT | CEM + CEM-SS | IIIB | 0.2 µM
CC(C)C1=C2[C@H]3CC[C@@H]4[C@@]5(C)CC[C@H](OC(=O)[C@H]6C[C@@H](C(=O)O)C6(C)C)C(C)(C)[C@@H]5CC[C@@]4(C)[C@]3(C)CC[C@@]2(CCNCC(C)(C)NC(=O)c2nccn2C)CC1=O | - | p24 / ELISA | MT-2 | 92HT599 | <1 µM
CS[C@@]12CC3C(=O)CC[C@H](O)[C@H]3N1C(=O)[C@@]13C[C@@H]4[C@@H]([C@@H](O)C=C[C@@H]4S1)N3C2=O | - | luciferase / luminescence | 293T | NL4-3 | 13.3 µM
Cc1cn([C@H]2C[C@H](F)[C@@H](CO)O2)c(=O)n(CCF)c1=O | - | microscopy | CEM | IIIB | 50 µg/mL
CC(=O)COc1cc(NC(=S)OC(C)C)ccc1Cl | - | cytopathic effect / XTT | CEM + CEM-SS | RF | 1.18 µM
CN(CCN1CCCC1)C(=O)c1ccc(C2=NN3C(C(=O)c4ccc(F)cc4)Oc4ccccc4C3C2)cc1 | - | GFP / reporter gene | MT-4 | LAI | 1–10 µM
CC(/C=C/C=C\C=C\C=C(/C)C(=O)NC(C)CO)=C\C(C)C(O)/C(C)=C/C(C)CCc1ccccc1 | - | cytopathic effect / thymidine uptake | MT-4 | IIIB | <0.00102 µM
CC(C)(C)c1ccc(C(=O)C2Oc3ccccc3C3CC(c4ccc(C(=O)NC5CCCC5)cc4)=NN23)cc1 | - | GFP / reporter gene | MT-4 | LAI | <1 µM
N#Cc1cc(Cl)cc(Oc2c(Br)ccc(CC(=O)Nc3ccc(S(N)(=O)=O)cc3Cl)c2F)c1 | E138K | - | MT-4 | - | 0.0023 µM
O=C(NC1CCCC1)c1ccc(C2=NN3C(C(=O)c4ccc(N5CCOCC5)cc4)Oc4ccccc4C3C2)cc1 | - | GFP / reporter gene | MT-4 | LAI | 1–10 µM
CC(C)C(OC(=O)c1cc(NC(=S)c2cccn2C)ccc1Cl)C(C)C | - | cytopathic effect / XTT | CEM + CEM-SS | RF | 0.13 µM
CS[C@@]12CC3=CC=C[C@H](O)[C@H]3N1C(=O)[C@@]13C[C@H]4C(=O)C[C@@H](S1)[C@H](O)[C@H]4N3C2=O | - | luciferase / luminescence | 293T | NL4-3 | 14.8 µM
CC(c1nc2ccc(C3=NCCN3)cc2[nH]1)c1nc2ccc(C3=NCCN3)cc2[nH]1 | - | cytopathic effect / propidium iodide | MT-4 | IIIB | 37.9 µM
CCCCCCCCCCCCCCCC(=O)OCC(COP(=O)(O)OCCNC(=O)[C@@H](NC(=O)[C@H](CC(C)C)OC(=O)C1CCN(C(=O)[C@@H](Cc2ccc3ccccc3c2)NC(=O)[C@H](Cc2ccccc2)NC(=O)OCC(C)C)CC1)C(C)C)OC(=O)CCCCCCCCCCCCCCC | - | plaque count | HT4 + HT4-6C | BRU | 9.6 µM
C=CCOc1cc(NC(=S)c2ccoc2C)ccc1OC | - | cytopathic effect / XTT | CEM + CEM-SS | RF | 0.08 µM
Clc1cc(CN2CCCNCCNCCCNCC2)cc(Cl)n1 | - | p24 | MM + M/M | BAL R5 | 23.9 µM
CN(C)CCN(Cc1ccccc1)C(=O)c1ccc(C2=NN3C(C(=O)c4ccc(F)cc4)Oc4ccccc4C3C2)cc1 | - | GFP / reporter gene | MT-4 | LAI | 1–10 µM
CC(C)COC(=O)N[C@@H](Cc1ccccc1)C(=O)N[C@H](Cc1ccc2ccccc2c1)C(=O)N1CCC(C(=O)O[C@@H](CC(C)C)C(=O)N[C@H](C(=O)O)C(C)C)CC1 | - | plaque count | HT4 + HT4-6C | BRU | 11.5 µM
CCCc1cc(=O)oc2c3c(c4c(c12)OC(C)(C)CC4)O[C@H](C)[C@@H](C)C3=O | - | cytopathic effect / XTT | - | IIIB | 1.47 µM
Cc1occc1C(=S)Nc1ccc(Cl)c(C(=O)OCC2CC2)c1 | RT-K101E | cytopathic effect / XTT | CEM + CEM-SS | NL4-3 | 0.9 µM
O=S(=O)(O)c1ccc2c(c1)-c1nc-2nc2nc(nc3[n-]c(nc4[n-]c(n1)c1cc(S(=O)(=O)O)ccc41)c1cc(S(=O)(=O)O)ccc31)-c1cc(S(=O)(=O)O)ccc1-2.[Al+3] | - | cell fusion / fluorescence | MT-2 | IIIB | <10 µg/mL
Cc1cc(C#N)cc(C(=O)c2ccccc2OCC(=O)Nc2ccc(S(N)(=O)=O)cc2C)c1 | RT-K103N | β-galactosidase | HeLa MAGI + HeLa | - | ~0.001 µM
CC1(C)CN=C(c2ccc3nc(Cc4nc5ccc(C6=NCC(C)(C)N6)cc5[nH]4)[nH]c3c2)N1 | - | cytopathic effect / propidium iodide | MT-4 | IIIB | 6.5 µM
CC(C)C1=C2[C@H]3CC[C@@H]4[C@@]5(C)CC[C@H](OC(=O)[C@H]6C[C@@H](C(=O)O)C6(C)C)C(C)(C)[C@@H]5CC[C@@]4(C)[C@]3(C)CC[C@@]2(CCNCC(CCN)NC(=O)c2ccc(Cl)cc2)CC1=O | - | p24 / ELISA | MT-2 | 92HT599 | <1 µM
Nc1ncnc2c1ncn2[C@@H]1C=C[C@H](OCP(=O)(O)O)O1 | - | cytopathic effect | MT-2 | WT | 5.9 µM
c1cc2nc(Cc3nc4ccc(C5=NCCCC5)cc4[nH]3)[nH]c2cc1C1=NCCCC1 | - | cytopathic effect / propidium iodide | MT-4 | IIIB | 90.8 µM
Cc1cc(=O)oc2c3c(ccc12)O[C@H](C)[C@H](OC(=O)[C@@]12CC[C@@](C)(C(=O)O1)C2(C)C)[C@@H]3OC(=O)[C@@]12CC[C@@](C)(C(=O)O1)C2(C)C | - | p24 / antigen | H9 | IIIB | >100 µg/mL
O=C(NC1CCCC1)c1ccc(C2=NN3C(C(=O)c4ccc(Br)cc4)Oc4ccccc4C3C2)cc1 | - | GFP / reporter gene | MT-4 | LAI | <1 µM
O=C(O)CS(=O)c1ccc2c3c(cccc13)C(=O)c1ccccc1-2 | - | luciferase / β-galactosidase | Jurkat cells | - | 0.2 µM
O=C(NC1CCCC1)c1ccc(C2=NN3C(C(=O)c4ccc(C5CCCCC5)cc4)Oc4ccccc4C3C2)cc1 | - | GFP / reporter gene | MT-4 | LAI | 1–10 µM
CC(C)C1=C2[C@H]3CC[C@@H]4[C@@]5(C)CC[C@H](OC(=O)[C@H]6C[C@@H](C(=O)O)C6(C)C)C(C)(C)[C@@H]5CC[C@@]4(C)[C@]3(C)CC[C@@]2([C@@H](O)CNCc2ccncc2)CC1=O | - | p24 / ELISA | MT-2 | 92HT599 | <1 µM
C/C=C/CSc1cc(NC(=S)c2ccsc2C)ccc1Cl | RT-V108I | p24 | CEM + CEM-SS | NL4-3 | 0.2 µM
CS[C@@]1(Cc2ccccc2)NC(=O)[C@@](Cc2ccccc2O)(SC)NC1=O | - | luciferase / luminescence | 293T | NL4-3 | 4.9 µM
CC1(C)CC=C(c2cn(-c3nccc(C(=O)NC4CCC(N5CC6CCC(C5)O6)CC4)n3)c3ccc(F)c([C@H](OC(C)(C)C)C(=O)O)c23)CC1 | E170K | luminescence | MT-4 | NL4-3 | 0.0037 µM
COc1cccc(CN(C)c2cccc(-c3ccc4ccn(Cc5cccc(C(=O)O)c5)c4c3)c2)c1 | - | entry / luminescence | MAGI-CCR5 | BaL | 1.6 µM
Cc1ccnc2c1NC(=O)c1cccnc1N2C1CC1 | - | p24 / ELISA | PBMC | SF33 | 0.69 µM
Cc1cn([C@@H]2O[C@H](CO)[C@@H](O)[C@@H]2O)c(=O)n(C)c1=O | - | microscopy | CEM | IIIB | >400 µg/mL
CS[C@@]1(Cc2ccccc2)NC(=O)[C@](O)(Cc2ccccc2)NC1=O | - | luciferase / luminescence | 293T | NL4-3 | 5.8 µM
CS(=O)(=O)c1ccc(C(=O)C2Oc3ccccc3C3CC(c4ccc(C(=O)NC5CCCC5)cc4)=NN23)cc1 | - | GFP / reporter gene | MT-4 | LAI | <1 µM
O=C(O)c1ccc(-c2c3nc(c(-c4ccc(C(=O)O)cc4)c4ccc([nH]4)c(-c4ccc(C(=O)O)cc4)c4nc(c(-c5ccc(C(=O)O)cc5)c5ccc2[nH]5)C=C4)C=C3)cc1 | - | cell fusion / fluorescence | MT-2 | IIIB | <10 µg/mL
CC(C)(C)OC(=O)c1cccc(Cn2ccc3ccc(-c4ccc5ccn(Cc6cccc(C(=O)O)c6)c5c4)cc32)c1 | - | cell fusion / luminescence | TZM-bl + HL2/3 | HXB2 | 0.2 µM
COc1ccc(S(=O)(=O)O)cc1N=Nc1c(S(=O)(=O)O)cc2cc(Nc3nc(Nc4ccccc4)nc(Nc4cc(C)c(N=Nc5cc(S(=O)(=O)O)cc6cc(S(=O)(=O)O)cc(O)c56)cc4OC)n3)ccc2c1O | - | cell fusion / fluorescence | MT-2 | IIIB | <10 µg/mL
CO[C@@]1(Cc2ccccc2)NC(=O)[C@](O)(Cc2ccccc2)NC1=O | - | luciferase / luminescence | 293T | NL4-3 | >20 µM
CC(C)C1=C2[C@H]3CC[C@@H]4[C@@]5(C)CC[C@H](OC(=O)[C@H]6C[C@@H](C(=O)O)C6(C)C)C(C)(C)[C@@H]5CC[C@@]4(C)[C@]3(C)CC[C@@]2(CC(=O)NCC(C)(C)NC(=O)c2ncc[nH]2)CC1=O | - | p24 / ELISA | MT-2 | 92HT599 | <1 µM
Cc1cn([C@H]2C[C@H](O)[C@@H](CO)O2)c(=O)n(CCF)c1=O | - | microscopy | CEM | IIIB | >400 µg/mL
Nc1ncnc2c1ncn2[C@H]1CC[C@@H](CO)O1 | - | RT activity / antigen | MT-4 | IIIB | 0.21 µg/mL

Conditions beyond the fields shown may differ between rows. ECn: concentration that inhibits the pathogen or its effect by n%. An empty or dashed field is not shown.